Anti-infective test results gathered from many reports (values: NIAID ChemDB through PubChem).

Common to all: whole-cell or culture tests; agent: Mycobacterium tuberculosis

Two numbers with a dash give a range or band.

SMILES	mutations	method	dose	strain	endpoint	value
Cn1c(C(N)=S)nc2ncccc21				H37Rv	MIC	125 µg/mL
N=c1cc2c(cn1-c1ccccc1Br)C(=O)c1ccccc1C2=O	Lux	luminescence		H37Rv	MIC	1.85 µM
CO[C@H]1/C=C/O[C@@]2(C)Oc3c(C)c(O)c4c(=O)c(c5oc6cc(N7CCCC7)cc(=O)c6nc5c4c3=C2O)NC(=O)/C(C)=C\C=C\[C@H](C)[C@H](O)[C@@H](C)[C@@H](O)[C@@H](C)[C@H](OC(C)=O)[C@@H]1C				H37Rv	MIC	0.017 µg/mL
Fc1cccc(Cl)c1CNCCc1c[nH]c2ccccc12				H37Ra	MIC	64 µg/mL
CCOC(=O)c1c(N(F)C(=O)c2c(F)c(F)c(F)c(F)c2F)sc2c1CCN(C(=O)OC(C)(C)C)C2		resazurin		H37Rv	MIC	>100 µM
COc1ncnc2c1cnn2Cc1cn(COCCO)nn1		BACTEC		H37Rv	EC50	<6.25 µg/mL
CCN1CCN(c2cc(=O)c3nc4c(oc3c2)c2c(=O)c3c(O)c(C)c5c(c34)=C(O)[C@@](C)(O/C=C/[C@H](OC)[C@@H](C)[C@@H](OC(C)=O)[C@H](C)[C@H](O)[C@H](C)[C@@H](O)[C@@H](C)/C=C/C=C(/C)C(=O)N2)O5)CC1				H37Rv	MIC	0.002 µg/mL
CC(=O)Nn1cnc2c(Nc3ccc(C#N)cc3)ncnc2c1=N				H37Rv	EC90	>100 µg/mL
CC(C)=C1C(=O)NC(=O)C1C(N)=O		BACTEC	12.5 µg/mL	H37Rv	inhibition	-2%
Cc1[nH]c2ccccc2c1C(C[N+](=O)[O-])C[N+](=O)[O-]				H37Ra	MIC	64 µg/mL
CC(=O)Nc1ccc(OCC(=O)NN2C(=O)C(C)SC2c2ccc(N(C)C)cc2)cc1			12.5 µg/mL	H37Rv	inhibition	0%
CCOC(=O)c1c(N)sc2c1CCCC2		resazurin		H37Rv	MIC	>400 µM
Cc1occc1C(=S)Nc1ccc(Cl)c(/C=N/OC(C)C)c1		BACTEC		H37Rv	MIC bound	≤12.5 µg/mL
N=c1cc2c(cn1-c1ccc(C(=O)O)cc1)C(=O)c1ccccc1C2=O	Lux	luminescence		H37Rv	MIC	23.6 µM
CSc1ncnc2c1cnn2Cc1cnnn1COCCO		BACTEC		H37Rv	EC50	>12.5 µg/mL
Clc1ccc(CNCCc2c[nH]c3ccccc23)c(Cl)c1				H37Ra	MIC	32 µg/mL
CC(=O)Nc1ccc(OCC(=O)NN2C(=O)CSC2c2ccccc2O)cc1				H37Rv	EC50	>12.5 µg/mL
COc1cccc(Nc2sc(C(=O)c3cc4cc(Cl)ccc4o3)c(N)c2C#N)c1		BACTEC	12.5 µg/mL	H37Rv	inhibition	-63%
NNC(=O)c1ccncc1	Lux	luminescence		H37Rv	MIC	0.13 µM
O=C(N/N=C/c1ccncc1)c1ccncc1					MIC	0.1 µg/mL
COc1c2c(c(OC)c3ccccc13)CN(c1ccccc1Cl)C(=N)C2	Lux	luminescence		H37Rv	MIC	15.92 µM
CC(=O)Nc1ccc(OCC(=O)NN2C(=O)CSC2c2ccc(N(C)C)cc2)cc1			12.5 µg/mL	H37Rv	inhibition	0%
Nc1sc(-c2ccccc2)cc1C(=O)O		resazurin		H37Rv	MIC	228 µM
NNC(=O)c1ccccn1					MIC	10 µg/mL
O=c1oc2ccc(F)cc2c(=O)n1-c1cccc([N+](=O)[O-])c1				CNCTC MY331/88	MIC	16 µM
CCOC(=O)c1c(NC(=O)c2c(F)c(F)c(F)c(F)c2F)sc2c1CCN(CC)C2		low oxygen		H37Rv	EC50	0.27 µM
COc1ccc(Nc2ncnc3c(=N)n(NC(C)=O)cnc23)cc1				H37Rv	EC90	>100 µg/mL
COc1cccc(OC)c1/C=C1\N=C(c2ccccc2)OC1=O		BACTEC	12.5 µg/mL	H37Rv	inhibition	3%
O=c1[nH][nH]c(=O)c2ncccc12					MIC	>200 µg/mL
CCn1cc(C(=O)O)c(=O)c2ccc(C)nc21				H37Rv	MIC90	>50 µM
Fc1ccccc1CNCCc1c[nH]c2ccccc12				H37Ra	MIC	64 µg/mL
CO[C@H]1/C=C/O[C@@]2(C)Oc3c(C)c(O)c4c(=O)c(c5oc6cc(N7CCN(C(C)(C)C)CC7)cc(=O)c6nc5c4c3=C2O)NC(=O)/C(C)=C\C=C\[C@H](C)[C@H](O)[C@@H](C)[C@@H](O)[C@@H](C)[C@H](OC(C)=O)[C@@H]1C				H37Rv	MIC	0.008 µg/mL
O=C1C=CC(=C(c2ccc(O)cc2)c2c(Cl)c(Cl)c(Cl)c(Cl)c2C(=O)O)C=C1		BACTEC	12.5 µg/mL	H37Rv	inhibition	0%
CCOC(=O)c1c(NC(C)=O)sc2c1CCCC2		resazurin		H37Rv	MIC	>300 µM
CO[C@H]1/C=C/O[C@@]2(C)Oc3c(C)c(O)c4c(=O)c(c5oc6cc(N7CCN(CC=C(C)C)CC7)cc(=O)c6nc5c4c3=C2O)NC(=O)/C(C)=C\C=C\[C@H](C)[C@H](O)[C@@H](C)[C@@H](O)[C@@H](C)[C@H](OC(C)=O)[C@@H]1C				H37Rv	MIC	0.035 µg/mL
COc1cccc(/C=N/NC(=O)c2ccncc2)c1					MIC	0.1 µg/mL
Cn1c(C(=O)NN)nc2ncccc21				H37Rv	MIC	31 µg/mL
COc1c2c(c(OC)c3ccccc13)CN(c1ccc(Cl)cc1)C(=N)C2	Lux	luminescence		H37Rv	MIC	10.4 µM
O=C(N/N=C/c1cccc(C(F)(F)F)c1)c1ccncc1				H37Rv	MIC	0.1 µg/mL
CC(=O)Nc1ccc(/C=N/NC(=O)c2cccnc2)cc1					MIC	1 µg/mL
CCOc1ccc(N2CC(=O)N3CCCC(c4ccccc4)N3C(=O)C2)cc1		BACTEC		H37Rv	MIC bound	>12.5 µg/mL
Clc1cccc(CNCc2c[nH]c3ccccc23)c1Cl				H37Ra	MIC	32 µg/mL
COc1cc2c(oc(=O)c3cc(C)cc(OC)c32)c2c(C3OC(C)C(O)C(C)(O)C3O)ccc(O)c12				RMP-R	MIC	12.5 µg/mL
CC1(C)Oc2cc(O)c(C(=O)/C=C/c3ccccc3)c(O)c2CC1O				H37Rv	MIC	50 µg/mL
O=C(N/N=C/c1ccc(O)cc1)c1ccncc1					MIC	<0.1 µg/mL
Cn1c(-c2nc3ccccc3s2)nc2ncccc21				H37Rv	MIC	25 µg/mL
CN(C)CCc1c[nH]c2ccccc12				H37Ra	MIC	256 µg/mL
CC(=O)Nc1ccc(OCC(=O)N/N=C/C=C/c2ccccc2)cc1			12.5 µg/mL	H37Rv	inhibition	4%
C#CCn1ncc2c(SC)ncnc21		BACTEC		H37Rv	EC50	<12.5 µg/mL
O=c1oc2ccc([N+](=O)[O-])cc2c(=O)n1-c1ccc(Cl)cc1				CNCTC MY331/88	MIC	31 µM
COc1ccc(/C=N/NC(=O)c2nc3ncccc3n2C)cc1OC				H37Rv	MIC	62 µg/mL
CN[C@@H]1[C@H](O[C@H]2[C@H](O[C@H]3[C@H](O)[C@@H](O)[C@H](N=C(N)N)[C@@H](O)[C@@H]3N=C(N)N)O[C@@H](C)[C@]2(O)C=O)O[C@@H](CO)[C@H](O)[C@H]1O				9428 (streptomycin isoniazid rifampin-R)	MIC	160 µg/mL
Nc1nc(NCCCc2ccccc2)c([N+](=O)[O-])c(=O)[nH]1		BACTEC		H37Rv	MIC bound	>12.5 µg/mL
COc1c2c(c(OC)c3ccccc13)CN(c1ccc(Br)cc1)C(=N)C2	Lux	luminescence		H37Rv	MIC	10.13 µM
N#Cc1nc2cc(C(F)(F)F)ccc2nc1N				H37Rv	EC50	<12.5 µg/mL
CC(=O)Nn1cnc2c(Nc3ccccc3)ncnc2c1=N				H37Rv	EC90	>100 µg/mL
COCCN(CCOC)c1cc(=O)c2nc3c(oc2c1)c1c(=O)c2c(O)c(C)c4c(c23)=C(O)[C@@](C)(O/C=C/[C@H](OC)[C@@H](C)[C@@H](OC(C)=O)[C@H](C)[C@H](O)[C@H](C)[C@@H](O)[C@@H](C)/C=C/C=C(/C)C(=O)N1)O4				H37Rv	MIC	0.004 µg/mL
COc1cc([C@H]2Oc3cc([C@H]4Oc5cc(O)cc(O)c5C(=O)[C@@H]4O)ccc3O[C@@H]2CO)ccc1O		BACTEC	12.5 µg/mL	H37Rv	inhibition	0%
CC1(C)CCC[C@]2(C)[C@@H]1CC[C@]1(O)CC(=O)CC[C@H]12		resazurin			MIC	6.25 µg/mL
CC(C)[C@@](O)(C(=O)OCC1=CC[N+]2([O-])CC[C@H](O)[C@@H]12)[C@H](C)O		BACTEC		H37Rv	MIC bound	>12.5 µg/mL
O=c1[nH]cnc2c1cnn2Cc1cnnn1COCCO		BACTEC		H37Rv	EC50	>12.5 µg/mL
CC(=O)Nc1ccc(/C=N/NC(=O)c2ccncc2)cc1					MIC	0.1–1 µg/mL
O=[N+]([O-])CC(C[N+](=O)[O-])c1c(-c2ccccc2)[nH]c2ccccc12				H37Ra	MIC	>256 µg/mL
O=C(N/N=C/c1ccc(O)cc1O)c1ccco1		BACTEC		H37Rv	MIC	≥12.5 µg/mL
CO[C@H]1/C=C/O[C@@]2(C)Oc3c(C)c(O)c4c(O)c(c(/C=N/N5CCN(C)CC5)c(O)c4c3C2=O)NC(=O)/C(C)=C\C=C\[C@H](C)[C@H](O)[C@@H](C)[C@@H](O)[C@@H](C)[C@H](OC(C)=O)[C@@H]1C		low oxygen		H37Rv	MIC	0.048 µM
Oc1ccc([C@H](O)[C@H]2CCCCN2)cc1O			6.25 µg/mL	H37Rv	inhibition	2%
OCCOCn1nncc1Cn1ncc2c(SCc3ccccc3)ncnc21		BACTEC		H37Rv	EC50	>12.5 µg/mL
CC1(C)Nc2cccc3cccc(c23)N1		BACTEC		H37Rv	MIC bound	>12.8 µg/mL
CCOC(=O)c1ccc(-n2c(=O)oc3ccc(OC)cc3c2=O)cc1				CNCTC MY331/88	MIC	32 µM
CC(C)=CCC(OC(=O)CC(C)C)C1=CC(=O)c2c(O)ccc(O)c2C1=O				KM-R	MIC	>12.5 µg/mL
CNC(=S)c1nc2ncccc2n1C				H37Rv	MIC	25 µg/mL
CN(C)CCOc1ccc2c(c1)CC/C(=C\c1ncc([N+](=O)[O-])n1C)C2=O		resazurin		H37Rv	MIC bound	>6.25 µg/mL
C[C@@]12CCC[C@@](C)(C(=O)O)[C@H]1CC[C@]13CC(=O)O[C@@H](CC[C@H]12)C3		resazurin			MIC	200 µg/mL
N#CCc1nc2c(s1)C(=O)c1ccccc1C2=O		BACTEC		H37Rv	MIC	3.13 µg/mL
N#Cc1ccc(-n2c(=O)oc3ccc(Br)cc3c2=O)cc1				CNCTC MY331/88	MIC	4 µM
C1CC[N+]2(CC1)CCCCC2.NC(=S)[S-]				PZA-R	MIC	1.6 µg/mL
N#Cc1nc2cc(C(F)(F)F)ccc2nc1Cl				H37Rv	MIC	>12.5 µg/mL
CO[C@H](C)[C@@H](NC(=O)[C@@H]1CCCN1C)[C@@H]1O[C@@H](SCCOC(=O)c2ccccc2O)[C@@H](O)[C@H](O)[C@H]1O		BACTEC		H37Rv	MIC	≥128 µg/mL
CC(=O)CC[C@@H]1C(=O)CC[C@@H]2C(C)(C)CCC[C@@]12C		resazurin			MIC	12.5 µg/mL
C=CCC1=C(C)C(OC(=O)/C=C/c2ccccc2Cl)CC1=O		BACTEC	12.5 µg/mL	H37Rv	inhibition	-7%
Fc1cccc(CNCCc2c[nH]c3ccccc23)c1F				H37Ra	MIC	64 µg/mL
Nc1nc2nc3c(nc2c(=O)[nH]1)CN(c1ccc(C(=O)O)cc1)C3=O		BACTEC		H37Rv	MIC	≥12.8 µg/mL
COc1c2c(c(OC)c3ccccc13)CN(c1ccc(C)cc1)C(=N)C2	Lux	luminescence		H37Rv	MIC	21.49 µM

For reference, 9 entries again:

SMILES	mutations	method	dose	strain	endpoint	value
COc1cc([C@H]2Oc3cc([C@H]4Oc5cc(O)cc(O)c5C(=O)[C@@H]4O)ccc3O[C@@H]2CO)ccc1O		BACTEC	12.5 µg/mL	H37Rv	inhibition	0%
CCOC(=O)c1c(N(F)C(=O)c2c(F)c(F)c(F)c(F)c2F)sc2c1CCN(C(=O)OC(C)(C)C)C2		resazurin		H37Rv	MIC	>100 µM
CC(C)[C@@](O)(C(=O)OCC1=CC[N+]2([O-])CC[C@H](O)[C@@H]12)[C@H](C)O		BACTEC		H37Rv	MIC bound	>12.5 µg/mL
O=[N+]([O-])CC(C[N+](=O)[O-])c1c(-c2ccccc2)[nH]c2ccccc12				H37Ra	MIC	>256 µg/mL
COc1c2c(c(OC)c3ccccc13)CN(c1ccc(C)cc1)C(=N)C2	Lux	luminescence		H37Rv	MIC	21.49 µM
CO[C@H]1/C=C/O[C@@]2(C)Oc3c(C)c(O)c4c(=O)c(c5oc6cc(N7CCN(CC=C(C)C)CC7)cc(=O)c6nc5c4c3=C2O)NC(=O)/C(C)=C\C=C\[C@H](C)[C@H](O)[C@@H](C)[C@@H](O)[C@@H](C)[C@H](OC(C)=O)[C@@H]1C				H37Rv	MIC	0.035 µg/mL
COc1cccc(/C=N/NC(=O)c2ccncc2)c1					MIC	0.1 µg/mL
Fc1ccccc1CNCCc1c[nH]c2ccccc12				H37Ra	MIC	64 µg/mL
CC(C)=CCC(OC(=O)CC(C)C)C1=CC(=O)c2c(O)ccc(O)c2C1=O				KM-R	MIC	>12.5 µg/mL

MIC bound: limit read from a one-dose screen. Rows are shuffled and stem from different studies. ECn is the concentration giving n% inhibition of infection, replication or growth. An empty or dashed field is not shown. A number after MIC or MFC names an inhibition level or a share of isolates. Inhibition is in % at the dose shown (toxicity tests: loss of growth or viability).